Structures can show the parent of a compound that is named as a salt.
test system: JEV strain AT31; experiment: microbe, parasite or virus in culture; conditions: Japanese encephalitis virus, 24 h, Primary screening of 1034 compounds in the natural extracts library

SMILES | inhibition at 50 µM [%]
C[C@@H]1O[C@@H](Oc2c(-c3ccc(O)c(O)c3)oc3cc(O)cc(O)c3c2=O)[C@H](O)[C@H](O)[C@H]1O [Quercitrin] | 1.23
O=C(O)[C@]1(O)C[C@@H](O)[C@@H](O)[C@H](O)C1 [Quinic acid] | 24.7
C=C[C@H]1C[N@@]2CC[C@H]1C[C@H]2[C@H](O)c1ccnc2ccc(OC)cc12 [Quinine] | 20.8
C[C@]12CC[C@H](O)C[C@H]1CC[C@@H]1[C@@H]2CC[C@]2(C)[C@@H](c3ccc(=O)oc3)C[C@H]3O[C@]132 [Resibufogenin] | 73.6
Oc1ccc(/C=C/c2cc(O)cc(O)c2)cc1 [Resveratrol] | 25.3
COc1ccc(/C=C/c2cc(O)cc(O)c2)cc1O [Rhapontigenin] | 5.65
O=C(/C=C/c1ccc(O)c(O)c1)O[C@H](Cc1ccc(O)c(O)c1)C(=O)O [Rosmarinic acid] | 10.7
C=C(C)[C@H]1Cc2c(ccc3c2O[C@@H]2COc4cc(OC)c(OC)cc4[C@@H]2C3=O)O1 [Rotenone] | 50.2
C=C1C[C@@]23CC[C@H]4[C@@](C)(CCC[C@@]4(C)C(=O)O[C@@H]4O[C@H](CO)[C@@H](O)[C@H](O)[C@H]4O)[C@@H]2CC[C@]1(O[C@@H]1O[C@H](CO)[C@@H](O)[C@H](O)[C@H]1O)C3 [Rubusoside] | -9.52
O=c1c2ccccc2nc2n1CCc1c-2[nH]c2ccccc12 [Rutaecarpine] | 58.4
C[C@@H]1O[C@@H](OC[C@H]2O[C@@H](Oc3c(-c4ccc(O)c(O)c4)oc4cc(O)cc(O)c4c3=O)[C@H](O)[C@@H](O)[C@@H]2O)[C@H](O)[C@H](O)[C@H]1O [Rutin] | 8.7
OC[C@H]1O[C@@H](OCCc2ccc(O)cc2)[C@H](O)[C@@H](O)[C@@H]1O [Salidroside] | 11.5
C[C@@H]1[C@H]2c3cc4c(cc3O[C@@]35OCOC3=CC(=O)[C@H](C[C@H]1C)[C@@H]25)OCO4 [Sauchinone] | 41.8
COc1cc2c(c(OC)c1OC)-c1c(cc3c(c1OC)OCO3)C[C@H](C)[C@@](C)(O)C2 [Schisandrol B] | 24
COc1cc2c(c(O)c1OC)-c1c(cc(OC)c(OC)c1OC)C[C@@H](C)[C@@H](C)C2 [Schisanhenol] | 66.6
C=C[C@](C)(O)CC[C@@H]1[C@@]2(C)CCCC(C)(C)[C@@H]2CC[C@@]1(C)O [Sclareol] | -31.1
O=C(O)c1cc(O)c2c(c1)[C@H]([C@H]1c3cc(C(=O)O)cc(O)c3C(=O)c3c(O[C@@H]4O[C@H](CO)[C@@H](O)[C@H](O)[C@H]4O)cccc31)c1cccc(O[C@@H]3O[C@H](CO)[C@@H](O)[C@H](O)[C@H]3O)c1C2=O [SennosideA] | -9.78
O=C(O)c1cc(O)c2c(c1)[C@@H]([C@H]1c3cc(C(=O)O)cc(O)c3C(=O)c3c(O[C@@H]4O[C@H](CO)[C@@H](O)[C@H](O)[C@H]4O)cccc31)c1cccc(O[C@@H]3O[C@H](CO)[C@@H](O)[C@H](O)[C@H]3O)c1C2=O [SennosideB] | -11.7
c1cc2c(cc1O[C@H]1OC[C@H]3[C@@H]1CO[C@@H]3c1ccc3c(c1)OCO3)OCO2 [Sesamolin] | -1.68
O=C(O)C1=C[C@@H](O)[C@@H](O)[C@H](O)C1 [Shikimic Acid] | -3.63
COc1cc([C@@H]2[C@H]3CO[C@@]4(O)C(=O)[C@@H]2C=C([C@H]2Oc5cc(O)cc(O)c5C(=O)[C@@H]2O)[C@@H]34)ccc1O [Silidianin] | 10
COc1ccc(-c2cc(=O)c3c(OC)c(OC)c(OC)cc3o2)cc1OC [Sinensetin] | 13.9

SMILES | inhibition at 50 µM [%]
O=C1C=CC[C@@H]2[C@H]3CCCN4CCC[C@@H](CN12)[C@@H]34 [Sophocarpine] | 7.33
O=c1c(-c2ccc(O[C@@H]3O[C@H](CO)[C@@H](O)[C@H](O)[C@H]3O)cc2)coc2cc(O)cc(O)c12 [Sophoricoside] | -3.53
C=C1C[C@@]23CC[C@H]4[C@@](C)(CCC[C@@]4(C)C(=O)O)[C@@H]2CC[C@]1(O)C3 [Steviol] | 8.84
COc1cc(/C=C/CO)cc(OC)c1O[C@@H]1O[C@H](CO)[C@@H](O)[C@H](O)[C@H]1O [Syringin] | 1.9
CC[C@]12C=CCN3CC[C@]4(C(=C(C(=O)OC)C1)Nc1ccccc14)[C@@H]32 [Tabersonine] | 95.7
COc1c(O)cc2occ(-c3ccc(O)cc3)c(=O)c2c1O [Tectorigenin] | 8.13
COC(=O)C1=CO[C@@H](C)[C@@H]2CN3CCc4c([nH]c5ccccc45)[C@@H]3C[C@H]12 [Tetrahydroalstonine] | -10.9
COc1ccc2c(c1OC)CN1CCc3cc4c(cc3C1C2)OCO4 (stereo not shown) [Tetrahydroberberine] | 28
COc1ccc2cc1Oc1ccc(cc1)C[C@H]1c3cc(c(OC)cc3CCN1C)Oc1c(OC)c(OC)cc3c1[C@H](C2)N(C)CC3 [Tetrandrine] | 2.52
Cn1cnc2c1c(=O)[nH]c(=O)n2C [Theobromine] | 14.1
COc1c(O[C@@H]2O[C@H](CO)[C@@H](O)[C@H](O)[C@H]2O)cc2c(c1OC)-c1ccc(SC)c(=O)cc1[C@@H](NC(C)=O)CC2 [Thiocolchicoside] | 47.1
C[C@@H]1CC[C@@]2(OC1)O[C@H]1C[C@H]3[C@@H]4CC[C@H]5C[C@@H](O)CC[C@]5(C)[C@H]4CC[C@]3(C)[C@H]1[C@@H]2C [Tigogenin] | -0.724
O=C(/C=C/c1ccc(O)cc1)OC[C@H]1O[C@@H](Oc2c(-c3ccc(O)cc3)oc3cc(O)cc(O)c3c2=O)[C@H](O)[C@@H](O)[C@@H]1O [Tiliroside] | -2.58
CC(=O)O[C@@H]1C[C@H](O)[C@@]23CO[C@@H](O)[C@]1(C)[C@@H]2C[C@@H](O)[C@]1(C)[C@@H]3C(=O)[C@H](OC(C)=O)[C@@]2(C)[C@H](c3ccoc3)C[C@H]3O[C@]321 [Toosendanin] | 33
OC[C@H]1O[C@H](O[C@H]2O[C@H](CO)[C@@H](O)[C@H](O)[C@H]2O)[C@H](O)[C@@H](O)[C@@H]1O [Trehalose] | 1.7
C[n+]1cccc(C(=O)[O-])c1 [Trigonelline Hydrochloride] | -57.9
C[n+]1cccc(C(=O)[O-])c1 [Trigonelline] | 3.1
CC(=O)O[C@H]1[C@H](OCCc2ccc(O)c(O)c2)O[C@H](CO[C@@H]2O[C@H](CO)[C@@H](O)[C@H](O)[C@H]2O)[C@@H](OC(=O)/C=C/c2ccc(O)c(O)c2)[C@@H]1OC[C@@H]1O[C@@H](C)[C@H](O)[C@@H](O)[C@H]1O [Tubuloside A] | 10.5
CC[C@]1(O)C[C@@H]2CN(CCc3c([nH]c4ccccc34)[C@@](C(=O)OC)(c3cc4c(cc3OC)N(C)[C@H]3[C@@](O)(C(=O)OC)[C@H](OC(C)=O)[C@]5(CC)C=CCN6CC[C@]43[C@@H]65)C2)C1 [Vinblastine sulfate] | 62.3
CC[C@]12CCCN3CCc4c(n(c5ccccc45)[C@@](O)(C(=O)OC)C1)[C@@H]32 [Vincamine] | 2.5
CC[C@]1(O)C[C@H]2CN(CCc3c([nH]c4ccccc34)[C@@](C(=O)OC)(c3cc4c(cc3OC)N(C=O)[C@H]3[C@@](O)(C(=O)OC)[C@H](OC(C)=O)[C@]5(CC)C=CCN6CC[C@]43[C@@H]65)C2)C1 [Vincristine Sulfate] | 46.9
CCC12C=CCN3CC[C@@]4(c5ccc(OC)cc5N(C)[C@H]4[C@@](O)(C(=O)OC)[C@@H]1OC(C)=O)[C@@H]32 (stereo partly shown) [Vindoline] | 13.4

SMILES | inhibition at 50 µM [%]
CCC1=C[C@@H]2CN(C1)Cc1c([nH]c3ccccc13)[C@@](C(=O)OC)(c1cc3c(cc1OC)N(C)[C@H]1[C@@](O)(C(=O)OC)[C@H](OC(C)=O)[C@]4(CC)C=CCN5CC[C@]31[C@@H]54)C2 [VinorelbineTartrate] | -13.8
CCOC(=O)C1=C[C@]2(CC)CCCN3CCc4c(n1c1ccccc41)[C@@H]32 [Vinpocetine] | 34
O=c1cc(-c2ccc(O)cc2)oc2c([C@@H]3O[C@H](CO)[C@@H](O)[C@H](O)[C@H]3O)c(O)cc(O)c12 [Vitexin] | 13.2
COc1cc(O)c2c(c1)oc(=O)c1c3cc(O)c(O)cc3oc21 [Wedelolactone] | -42
COc1c(O)cc(O)c2c(=O)cc(-c3ccccc3)oc12 [Wogonin] | 11.1
COc1cc(O)c(CC=C(C)C)c(O)c1C(=O)/C=C/c1ccc(O)cc1 [Xanthohumol] | 96.4
OC[C@@H](O)[C@H](O)[C@@H](O)CO [Xylitol] | -9.02
COC(=O)[C@@H]1[C@H]2C[C@H]3c4[nH]c5ccccc5c4CCN3C[C@@H]2CC[C@@H]1O [Yohimbine Hydrochloride] | 92
COc1cc(CCC(C)=O)ccc1O [Zingerone] | -5.51
CC(=O)O[C@H](CC=C(C)C)C1=CC(=O)c2c(O)ccc(O)c2C1=O [acetylshikonin] | -80.9
C=C1CCC2CC1C2(C)C (stereo not drawn) [beta-Pinene] | 14
CC(C)[C@@H](C)/C=C/[C@@H](C)[C@H]1CC[C@H]2C3=C[C@@H](O)[C@@]4(O)C[C@@H](O)CC[C@]4(C)[C@H]3CC[C@]12C [cerevisterol] | -58.2
CC(C)=CCCC1=CC(=O)c2c(O)ccc(O)c2C1=O [deoxyshikonin] | -45.9
COC(=O)C1=CO[C@@H](O[C@@H]2O[C@H](CO)[C@@H](O)[C@H](O)[C@H]2O)[C@@H]2C(CO)=CC[C@H]12 [geniposide] | 12.4
C=C1C(=O)[C@@]23[C@H](O)C[C@@H]4C(C)(C)C(=O)CC[C@@]4(C)[C@@H]2CC[C@@H]1[C@H]3O [glaucocalyxin A] | 80.1
C=C1C(=O)[C@@]23[C@H](O)C[C@@H]4C(C)(C)C(=O)CC[C@@]4(C)[C@@H]2CC[C@@H]1[C@H]3OC(C)=O [glaucocalyxin B] | 70.4
COc1c(O)cc2oc(-c3ccc(O)cc3)cc(=O)c2c1O [hispidulin] | 41.8
C=CCc1ccc(O)c(-c2ccc(O)c(CC=C)c2)c1 [honokiol] | -0.897
COc1cc(-c2coc3cc(O)c(OC)c(O)c3c2=O)cc(O)c1OC [irigenin] | 85.6
C[C@@]12CC[C@@H]3[C@@](CC[C@H]4[C@@]3(C)CCC[C@@]4(C)C(=O)O)(CC1=O)C2 [iso-Steviol] | -11.2
